Data taken from article PMC8145535, “New Acyl Derivatives of 3-Aminofurazanes and Their Antiplasmodial Activities” (Pharmaceuticals, 2021).

Experiments:
P. falciparum NF54 = experiment: In vitro 3H-hypoxanthine incorporation assay, erythrocytic stages, NF54 strain; type: cell-based, Plasmodium falciparum; settings: selectivity index, L-6 cells vs P.f. NF54
Method: (§1) Chloroquine (Sigma C6628) was used as standard. […] Serial drug dilutions of 11 3-fold dilution steps covering a range from 100 to 0.002 μg/mL were prepared. The 96-well plates were incubated in a humidified atmosphere at 37 °C; 4% CO2, 3% O2, 93% N2. […] The plates were incubated for a further 24 h under the same conditions. The plates were then harvested with a Betaplate cell harvester (Wallac, Zurich, Switzerland). The red blood cells were transferred onto a glass fiber filter and washed with distilled water. The dried filters were inserted into a plastic foil with 10 mL of scintillation fluid and counted in a Betaplate liquid scintillation counter (Wallac, Zurich, Switzerland).

P. falciparum K1 = experiment: In vitro 3H-hypoxanthine incorporation assay, erythrocytic stages, K1 strain; type: cell-based, Plasmodium falciparum; settings: selectivity index, L-6 cells vs P.f. K1
Method: as §1

| SMILES | S.I. = IC50 (Cyt.)/IC50 (P.f. NF54) (P. falciparum NF54) | S.I. = IC50 (Cyt.)/IC50 (P.f. K1) (P. falciparum K1) |
| --- | --- | --- |
| CCOc1ccc(-c2nonc2NC(=O)c2cccc(F)c2)cc1OCC [Compound 14, N-(4-(3,4-Diethoxyphenyl)-1,2,5-oxadiazol-3-yl)-3-fluorobenzamide] | 838.6 | 380.5 |
| CCOc1ccc(-c2nonc2NC(=O)CCN2CCOCC2)cc1OCC [Compound 35, N-(4-(3,4-Diethoxyphenyl)-1,2,5-oxadiazol-3-yl)-3-(morpholin-4-yl)propanamide] | 4.88 | 7.76 |
| CCOc1ccc(-c2nonc2NC(=O)c2ccc(CN3CCCC3)cc2)cc1OCC [Compound 26, N-(4-(3,4-Diethoxyphenyl)-1,2,5-oxadiazol-3-yl)-4-((pyrrolidin-1-yl)methyl)benzamide] | 25.07 | 54.25 |
| CCOc1ccc(-c2nonc2NC(=O)c2ccccc2)cc1OCC [Compound 10, N-(4-(3,4-Diethoxyphenyl)-1,2,5-oxadiazol-3-yl)benzamide] | 1463 | 1222 |
| CCOc1ccc(-c2nonc2NC(=O)CCN2CCCC2)cc1OCC [Compound 34, N-(4-(3,4-Diethoxyphenyl)-1,2,5-oxadiazol-3-yl)-3-(pyrrolidin-1-yl)propanamide] | 2.50 | 58.09 |
| CCOc1ccc(-c2nonc2NC(=O)c2ccc(OC)c(Cl)c2)cc1OCC [Compound 16, 3-Chloro-N-(4-(3,4-diethoxyphenyl)-1,2,5-oxadiazol-3-yl)-4-methoxybenzamide] | 1431 | – |
| CCOc1ccc(-c2nonc2NC(=O)c2cccc(CN3CCCC3)c2)cc1OCC [Compound 28, N-(4-(3,4-Diethoxyphenyl)-1,2,5-oxadiazol-3-yl)-3-((pyrrolidin-1-yl)methyl)benzamide] | 402.2 | – |
| CCOc1ccc(-c2nonc2NC(=O)c2cccc(C(F)(F)F)c2)cc1OCC [Compound 13, N-(4-(3,4-Diethoxyphenyl)-1,2,5-oxadiazol-3-yl)-3-(trifluoromethyl)benzamide] | 524.6 | 1424 |
| CCOc1ccc(-c2nonc2NC(=O)CN2CCOCC2)cc1OCC [Compound 32, N-(4-(3,4-Diethoxyphenyl)-1,2,5-oxadiazol-3-yl)-2-(morpholin-4-yl)acetamide] | 10.95 | 13.61 |
| CCOc1ccc(-c2nonc2NC(=O)CN2CCCC2)cc1OCC [Compound 31, N-(4-(3,4-Diethoxyphenyl)-1,2,5-oxadiazol-3-yl)-2-(pyrrolidin-1-yl)acetamide] | 33.46 | 48.25 |
| CCOc1ccc(-c2nonc2NC(=O)c2cccc(CN3CCOCC3)c2)cc1OCC [Compound 29, N-(4-(3,4-Diethoxyphenyl)-1,2,5-oxadiazol-3-yl)-3-((morpholin-4-yl)methyl)benzamide] | 146.0 | – |
| CCOc1ccc(-c2nonc2NC(=O)c2ccc(CN3CCOCC3)cc2)cc1OCC [Compound 27, N-(4-(3,4-Diethoxyphenyl)-1,2,5-oxadiazol-3-yl)-4-((morpholin-4-yl)methyl)benzamide] | 172.7 | 199.7 |
| Cc1cccc(C(=O)Nc2nonc2-c2ccccc2)c1 [Compound 39, 3-Methyl-N-(4-phenyl-1,2,5-oxadiazol-3-yl)benzamide] | 3.07 | 1.65 |
| CCOc1ccc(-c2nonc2NC(=O)c2ccc(OC)c(F)c2)cc1OCC [Compound 17, N-(4-(3,4-Diethoxyphenyl)-1,2,5-oxadiazol-3-yl)-3-fluoro-4-methoxybenzamide] | 209.8 | – |
| C[C@@H]1CC[C@H]2[C@@H](C)C(=O)O[C@@H]3O[C@@]4(C)CC[C@@H]1[C@]32OO4 [ART, artemisinin, reference compound] | – | 70390 |
